The text below walks through data of patent US5637461.

The series addresses HIV-1 Tat protein (HIV-1) (UniProt P04608). Nature of the series: binding assay. Conditions: CITED natural tat ligand; purified recombinant protein; protein details: American Bio-Technologies, Inc.

The exact form of at least one protein or probe is not confirmed.

Turning to CCAGAUCUGAGCCUGGGAGCUUCUGG [TAR RNA], the binding result is listed as “binds”.
